PMC4668384 (Scientific Reports, 2015)

System: V. virens pB-Vv51wt transformants (P-F)
Assay: Tebuconazole sensitivity, mycelial growth on amended PSA, pB-Vv51wt transformants
Type: cell-based, Villosiclava virens

CC(C)(C)C(O)(CCc1ccc(Cl)cc1)Cn1cncn1 (centres unmarked) [tebuconazole]
Resistance factor (EC50 of P-F 4 divided by EC50 of parental isolate FJ4-1b): 2.67
Resistance factor (EC50 of P-F 7 divided by EC50 of parental isolate FJ4-1b): 5.79
Resistance factor (EC50 of P-F 8 divided by EC50 of parental isolate FJ4-1b): 3.10
Resistance factor (EC50 of P-F 9 divided by EC50 of parental isolate FJ4-1b): 3.67
Resistance factor (EC50 of P-F 10 divided by EC50 of parental isolate FJ4-1b): 2.90
Resistance factor (EC50 of P-F 13 divided by EC50 of parental isolate FJ4-1b): 2.69
Resistance factor (EC50 of P-F 14 divided by EC50 of parental isolate FJ4-1b): 6.64
Resistance factor (EC50 of P-F 15 divided by EC50 of parental isolate FJ4-1b): 3.02
Resistance factor (EC50 of P-F 16 divided by EC50 of parental isolate FJ4-1b): 3.17
Resistance factor (EC50 of P-F 17 divided by EC50 of parental isolate FJ4-1b): 4.71
Resistance factor (EC50 of P-F 20 divided by EC50 of parental isolate FJ4-1b): 6.50
Resistance factor (EC50 of P-F 22 divided by EC50 of parental isolate FJ4-1b): 3.52
Resistance factor (EC50 of P-F 23 divided by EC50 of parental isolate FJ4-1b): 4.76
Resistance factor (EC50 of P-F 25 divided by EC50 of parental isolate FJ4-1b): 3.64
Resistance factor (EC50 of P-F 26 divided by EC50 of parental isolate FJ4-1b): 4.26
Resistance factor (EC50 of P-F 28 divided by EC50 of parental isolate FJ4-1b): 3.05
Resistance factor (EC50 of P-F 29 divided by EC50 of parental isolate FJ4-1b): 6.07
Resistance factor (EC50 of P-F 31 divided by EC50 of parental isolate FJ4-1b): 5.83
Resistance factor (EC50 of P-F 32 divided by EC50 of parental isolate FJ4-1b): 7.71
Resistance factor (EC50 of P-F 33 divided by EC50 of parental isolate FJ4-1b): 2.74
Resistance factor (EC50 of P-F 34 divided by EC50 of parental isolate FJ4-1b): 3.55
Resistance factor (EC50 of P-F 36 divided by EC50 of parental isolate FJ4-1b): 5.33
Resistance factor (EC50 of P-F 37 divided by EC50 of parental isolate FJ4-1b): 2.52
Resistance factor (EC50 of P-F 38 divided by EC50 of parental isolate FJ4-1b): 7.29
Resistance factor (EC50 of P-F 39 divided by EC50 of parental isolate FJ4-1b): 2.98
Resistance factor (EC50 of P-F 40 divided by EC50 of parental isolate FJ4-1b): 4.90
